Among the data in PubChem BioAssay AID1964107 (National Center for Advancing Translational Sciences (NCATS), 2024) are activity change, negative = inhibition values, retold here.

Structures are written as SMILES. The list shows a part of the results, in another mix than the full data. Inconclusive results are not listed. Some salts and complexes are drawn in separate pieces, as the source files them; their charges need not balance. Activity calls are given as the source filed them. The call rests on the fitted dose curve.
On the % scale 0 is the no-effect control and ±100 the full control effect.

This test deals with Polyprotein P1234 (Chikungunya virus (strain S27-African prototype)) (UniProt Q8JUX6). Nature of the test: Primary qHTS for inhibitors of NSP2Pro chikungunya virus (CHIKV). Further: nearly all actives have a fitted effect of over 60% in size. The settings on record: FRET peptide cleavage, fluorescence 1 h; at 24.9 µM (top of the series) unless noted. For orientation: Quantitative high-throughput screening tests each substance at several concentrations.
As to `C/C1=C2N=C(/C=C3N=C(/C(C)=C4\[N-][C@@](C)([C@@H]5N=C1[C@](C)(CCC(=O)NC[C@@H](C)OP(=O)([O-])O[C@H]1[C@@H](O)[C@@H](n6cnc7cc(C)c(C)cc76)O[C@@H]1CO)[C@H]5CC(N)=O)[C@@](C)(CC(N)=O)[C@@H]4CCC(N)=O)[C@@](C)(CC(N)=O)[C@@H]\3CCC(N)=O)C(C)(C)[C@@H]/2CCC(N)=O.[C-]#N.[Co+3]`, the activity change, negative = inhibition is inactive: -11.4%.
Under `CCOP(=O)(CC)Oc1ccc([N+](=O)[O-])cc1` (stereo unspecified) stands inactive: -4.63%; under `CC(C)OP(=O)(F)OC(C)C`, inactive: -7.48%; under `C/C1=C2N=C(/C=C3N=C(/C(C)=C4\N=C(C(CC(N)=O)C4(C)CCC(=O)NCC(C)OP(=O)([O-])OC4C(CO)OC(n5cnc6cc(C)c(C)cc65)C4O)C4(C)N=C1C(CCC(N)=O)C4(C)CC(N)=O)C(CCC(N)=O)C\3(C)C)C(CCC(N)=O)C/2(C)CC(N)=O.[C-]#N.[Co]` (stereo unspecified), inactive: -11.7% [at 10 µM].
Turning to `O=[N+]([O-])OCC(CO[N+](=O)[O-])(CO[N+](=O)[O-])CO[N+](=O)[O-]`, the activity change, negative = inhibition is inactive: -3.5%.
Next, `O=[N+]([O-])c1cccc([N+](=O)[O-])c1`: inactive: -6.21%.
